Assay results: publication PMC13198257, “An aerosolized dual-action autotaxin inhibitor-PPARγ agonist for the treatment of pulmonary fibrosis” (Cell Reports Medicine, 2026)

Test system: lung gene expression
Assay: RNA sequencing of lung tissue (BLM/EL244 vs BLM)
Assay type: in vivo, mouse
Description: RNA quality was assessed using an Agilent TapeStation 4150 with the High Sensitivity […] ScreenTape (Agilent), according to the manufacturer’s protocols. For library preparation, the QuantSeq 3’mRNA-Seq Library Prep Kit (Lexogen) was used according to manufacturer’s instructions. Briefly, 500 ng of RNA from each sample was used for first-strand synthesis, followed by RNA template removal, and second-strand synthesis initiated by random primers. In-line barcodes were introduced at this step, and this was followed by magnetic bead-based purification. The resulting libraries were amplified for 15 cycles and re-purified, with quantity and quality assessed on a Qubit 4 Fluorometer with the Invitrogen Qubit dsDNA HS Assay and an Agilent Tapestation 4150 with the High Sensitivity D1000 assay kit, respectively. The quantified libraries were pooled equimolarly; 50ng of total library mix was used for Adapter Conversion PCR Amplification using the Universal Library Conversion Kit (App-A), Version: V1.0 (MGI Tech Co., Ltd.), according to the manufacturer’s instructions.
The quantity and quality of the purified adapter conversion PCR (AC-PCR) product were evaluated on a Qubit 4 Fluorometer with the Invitrogen Qubit dsDNA HS Assay and on an Agilent Tapestation 4150 with the High Sensitivity D1000 assay kit, respectively. This was followed by DNA denaturation, Single-Strand Circularisation, Enzymatic Digestion, Enzymatic Digestion Product Cleanup and Quality Control steps on 1 pmol of AC-PCR product, according to the Universal Library Conversion Kit (App-A) User Manual (Version: A3). […]
Alignment of the FASTQ files was performed against the mouse genome build mm10 using a custom Bash script.[143] Read counting on the 3′ UTRs and differential expression analysis were conducted using the metaseqR2 bioconductor package.[144] […]

For O=C1NC(=O)C(Cc2ccc(OCCC3CCN(C(=O)OCc4cc(Cl)cc(Cl)c4)CC3)cc2)S1 (stereo not drawn) [EL244, 3,5-dichlorobenzyl 4-(2-(4-((2,4-dioxothiazolidin-5-yl)methyl)phenoxy)ethyl)piperidine-1-carboxylate], the “BLM-induced DEGs suppressed by treatment (Q3)” value was 363 DEGs, the “EL244-deregulated DEGs that are a subset of BLM-induced DEGs” value was 646 DEGs and the “Number of deregulated genes versus BLM-treated mice” value (inhaled EL244) was 741 genes.
